Changes are numbered by the printed parent chain. Names may count otherwise.
B1: arabinose BP L253C JPW4039 (conjugate, UniProt P02924 24-329, looked up, variant L253C)
L-arabinose-binding …: ENLKLGFLVKQPEEPWFQTEWKFADKAGKDLGFEVIKIAVPDGEKTLNAIDSLAASGAKGFVICTPDPKLGSAIVAKARGYDMKVIAVDDQFVNAKGKPMDTVPLVMMAATKIGERQGQELYKEMQKRGWDVKESAVMAITANELDTARRRTTGSMDALKAAGFPEKQIYQVPTKSNDIPGAFDAANSMLVQHPEVKHWLIVGMNDSTVLGGVRATEGQGFKAADIIGIGINGVDAVSELSKAQATGFYGSLCPSPDVHGYKSSEMLYNWVAKDVEPPKFTEVTDVVLITRDNFKEELEKKGLGGK
modifications: JPW4039 label
B2: histidine BP V163C NBD (conjugate, UniProt P0AEU0 23-260, looked up, variant V163C)
Histidine-binding periplasmic …: AIPQNIRIGTDPTYAPFESKNSQGELVGFDIDLAKELCKRINTQCTFVENPLDALIPSLKAKKIDAIMSSLSITEKRQQEIAFTDKLYAADSRLVVAKNSDIQPTVESLKGKRVGVLQGTTQETFGNEHWAPKGIEIVSYQGQDNIYSDLTAGRIDAAFQDECAASEGFLKQPVGKDYKFGGPSVKDEKLFGVGTGMGLRKEDNELREALNKAFAEMRADGTYEKLAKKYFDFDVYGG
modifications: NBD dye conjugate
B3: histidine BP Y230C Acrylodan (conjugate, UniProt P0AEU0 23-260, looked up, variant Y230C)
Histidine-binding periplasmic …: B2 Histidine-binding periplasmic … with C163V, Y230C
modifications: acrylodan label
B4: histidine BP Y230C NBD (conjugate, UniProt P0AEU0 23-260, looked up, variant Y230C)
Histidine-binding periplasmic …: B2 Histidine-binding periplasmic … with C163V, Y230C
modifications: NBD label
B5: histidine BP F231C Acrylodan (conjugate, UniProt P0AEU0 23-260, looked up, variant F231C)
Histidine-binding periplasmic …: B2 Histidine-binding periplasmic … with C163V, F231C
modifications: acrylodan label
B6: histidine BP F231C NBD (conjugate, UniProt P0AEU0 23-260, looked up, variant F231C)
Histidine-binding periplasmic …: B2 Histidine-binding periplasmic … with C163V, F231C
modifications: NBD dye conjugate
B7: histidine BP Y88C Acrylodan (conjugate, UniProt P0AEU0 23-260, looked up, variant Y88C)
Histidine-binding periplasmic …: B2 Histidine-binding periplasmic … with Y88C, C163V
modifications: acrylodan conjugate
B8: arabinose BP L253C Acrylodan (conjugate, UniProt P02924 24-329, looked up, variant L253C)
L-arabinose-binding …: B1 L-arabinose-binding …
modifications: acrylodan conjugate
B9: arabinose BP L253C Fluoresecin (conjugate, UniProt P02924 24-329, looked up, variant L253C)
L-arabinose-binding …: B1 L-arabinose-binding …
modifications: fluorescein conjugate
B10: arabinose BP L253C NBD (conjugate, UniProt P02924 24-329, looked up, variant L253C)
L-arabinose-binding …: B1 L-arabinose-binding …
modifications: NBD label
B11: phosphate BP A225C JPW4039 (conjugate, UniProt P0AG82 26-346, looked up, variant A225C)
Phosphate-binding protein PstS: EASLTGAGATFPAPVYAKWADTYQKETGNKVNYQGIGSSGGVKQIIANTVDFGASDAPLSDEKLAQEGLFQFPTVIGGVVLAVNIPGLKSGELVLDGKTLGDIYLGKIKKWDDEAIAKLNPGLKLPSQNIAVVRRADGSGTSFVFTSYLAKVNEEWKNNVGTGSTVKWPIGLGGKGNDGIAAFVQRLPGAIGYVEYAYAKQNNLAYTKLISADGKPVSPTEENFCNAAKGADWSKTFAQDLTNQKGEDAWPITSTTFILIHKDQKKPEQGTEVLKFFDWAYKTGAKQANDLDYASLPDSVVEQVRAAWKTNIKDSSGKPLY
modifications: JPW4039 label
B12: phosphate BP A225C JPW4042 (conjugate, UniProt P0AG82 26-346, looked up, variant A225C)
Phosphate-binding protein PstS: B11 Phosphate-binding protein PstS
modifications: JPW4042 dye conjugate
B13: phosphate BP A225C JPW4045 (conjugate, UniProt P0AG82 26-346, looked up, variant A225C)
Phosphate-binding protein PstS: B11 Phosphate-binding protein PstS
modifications: JPW4045 label
B14: phosphate BP A225C Acrylodan (conjugate, UniProt P0AG82 26-346, looked up, variant A225C)
Phosphate-binding protein PstS: B11 Phosphate-binding protein PstS
modifications: acrylodan conjugate
B15: phosphate BP A225C Fluorescein (conjugate, UniProt P0AG82 26-346, looked up, variant A225C)
Phosphate-binding protein PstS: B11 Phosphate-binding protein PstS
modifications: fluorescein label
B16: arabinose BP L298C JPW4039 (conjugate, UniProt P02924 24-329, looked up, variant L298C)
L-arabinose-binding …: B1 L-arabinose-binding … with C253L, L298C
modifications: JPW4039 dye label

Assay: Fluorescence emission spectra without and with saturating ligand (wavelength shift, ΔIstd, ΔRmax)
Conditions: for λmax,apo (nm): absence of ligand; for ΔIstd: standard intensity change; for ΔIstd / ΔRmax: unbound vs ligand-saturated; for ΔRmax: standard ratiometric change
Procedure: Fluorimetry. All measurements were conducted with an SLM Aminco-Bowman series 2 fluorimeter, with sample stirring at 25° C. Fluorescence emission spectra were acquired with excitation and emission slit widths of 4 and 8 nm, respectively. Photomultiplier tube potential was maintained between 400 and 800 volts. Protein concentrations were in the range of 50 to 1000 nM. Fluorophore-specific excitation was at the following approximate wavelengths: tryptophan, 290 nm; acrylodan, 390 nm; fluorescein, 485 nm; pyrene, 340 nm; NBD and NBDE, 490 nm; JPW4039, 485 nm; JPW4042, 470 nm; JPW4045, 470 nm.
Assessment of fluorescent biosensor function. Fluorescence emission spectra of bPBP-fluorophore conjugates were recorded in the absence and presence of saturating ligand concentrations. Spectral changes were characterized by four parameters: wavelength shift (the difference between the wavelengths of emission maximum in the unbound and ligand-saturated states), direction of intensity change (increase or decrease in intensity at the wavelengths of maximum emission in the two states), standard intensity change (ΔIstd), and standard ratiometric change (ΔR). ΔIstd is defined as the normalized intensity change relative to the average intensity, determined at the wavelength mid-point between the two emission maxima:
[formula] where λstd=(λmax, unbound+λmax, saturated)/2 and I1, I2 are the fluorescence intensities at λstd of each spectrum respectively (FIG. 4A). ΔR is defined in terms of two emission bands, A1 ([λ1, λ2]) and A2 ([λ3, λ4]) (FIG. 4B):
[formula] where ^∘A1, […] the areas in the absence of ligand, and ^∞A1, ^∞A2 the areas in the presence of saturating ligand. A computer program was used to enumerate ΔR for all possible pairs of wavelength bands in the two spectra, to identify the optimal sensing condition, defined as the maximum value of ΔR. Adjustable parameters of the algorithm, and their values used for ΔRmax quantities reported here, are: step size (2 nm), step width (10 nm), minimum integration area limit (fraction of total: 0.1), and maximum integration area limit (fraction of total: 1).

[1] = emission maximum, saturating ligand (ligand column)
[2] = wavelength of emission maximum, saturating ligand

Molecule	λmax,apo (nm) (emission maximum)	λmax,sat (nm) [1]	ΔIstd	ΔRmax	λmax,apo (nm) (wavelength of emission maximum)	λmax,sat (nm) [2]
B1	590	589	0.83	1.31	–	–
B2	542	543	0.17	1.32	–	–
B3	523	522	0.02	0.18	–	–
B4	535	534	0.09	0.20	–	–
B5	524	525	0.01	0.56	–	–
B6	545	542	0.07	0.19	–	–
B7	491	493	0.03	0.30	–	–
B8	482	495	0.05	1.81	–	–
B9	519	515	0.24	2.71	–	–
B10	539	539	0.41	1.66	–	–
B11	–	–	–	–	591	601
B12	–	–	–	–	615	628
B13	–	–	–	–	621	633
B14	–	–	–	–	503	502
B15	–	–	–	–	522	521
B16	591	591	0.42	0.65	–	–
